Our source for the SI values is publication PMC9457583, “New Chemicals Suppressing SARS-CoV-2 Replication in Cell Culture” (Molecules, 2022).

“And” between values parts separate entries of the source, which are not always exact repeats. Equal entries are not always repeated. Where two headings read alike, the source gives them in different places. Where only a bound is given, the exact number is not on record here.

In this data set the test system is SARS-CoV-2. The class given is cell-based.

Consider `Clc1ccc2nc(OCc3ccccc3Cl)c(N3CCOCC3)c(-c3ccccc3)c2c1` [Compound 6a, 6-chloro-2-[(2-chlorobenzyl)oxy]-3-(morpholin-4-yl)-4-phenylquinoline], for which, under “SI = CC50/EC50, Vero E6 cells”, the SI is given as >45.1.
Regarding `Cc1ccc2c(c1)-c1c(ssc1=S)C(C)(C)N2C(=O)COc1ccc2ccccc2c1` [Compound 3c], for the setting “SI = CC50/EC50, Vero E6 cells”, the SI is > 37 and >36.86.
As for `c1ccc2cc(Nc3nc(Nc4ccc5ccccc5c4)nc(N4CCCCCC4)n3)ccc2c1` [Compound 9a, 6-(azepan-1-yl)-N,N ^′ -di(naphthalen-2-yl)-1,3,5-triazine-2,4-diamine], the SI (SI = CC50/EC50, Vero E6 cells) was >11.9.
Take `O=c1[nH]c2ccc(Cl)cc2c(-c2ccccc2)c1SC(=S)N1CCCCC1` [Compound 6b, 6-chloro-2-oxo-4-phenyl-1,2-dihydroquinolin-3-yl piperidine-1-carboditioate]: the SI is listed as >4.75.
In the case of `c1ccc(Nc2nc(Nc3ccccc3)nc(N3CCCCCC3)n2)cc1` [Compound 9b, 6-(azepan-1-yl)-N,N’-diphenyl-1,3,5-triazine-2,4-diamine], the SI (SI = CC50/EC50, Vero E6 cells) is >7.57.
Same read-out and setting: the result for `CCC(CC)COC(=O)[C@H](C)N[P@](=O)(OC[C@H]1O[C@@](C#N)(c2ccc3c(N)ncnn23)[C@H](O)[C@@H]1O)Oc1ccccc1` [remdesivir, reference compound] reads > 56 and 56.5.
Take `CC1CCCCN1C(=S)Sc1c(-c2ccccc2)c2cc(Cl)ccc2[nH]c1=O` (stereo not shown) [Compound 6c, 6-chloro-2-oxo-4-phenyl-1,2-dihydroquinolin-3-yl 2-methylpiperidine-1-carboditioate]: the SI was >1.2.
As for `COc1ccc2c(c1)-c1c(ssc1=S)C(C)(C)N2C(=O)COc1ccc2ccccc2c1` [Compound 3d], where the note is “SI = CC50/EC50, Vero E6 cells”, the SI is on record as >10.64.
In the case of `CN1CCN(c2nc(Nc3cccc4ccccc34)nc(Nc3cccc4ccccc34)n2)CC1` [Compound 9c, 6-(4-methylpiperazin-1-yl)-N,N ^′ -di(naphthalen-1-yl)-1,3,5-triazine-2,4-amine], for the setting “SI = CC50/EC50, Vero E6 cells”, the SI was >1.62.
`Cc1ccc2c(c1)N(C(=O)COc1ccc3ccccc3c1)C(C)(C)c1ssc(=S)c1-2` [Compound 3b]: the SI (SI = CC50/EC50, Vero E6 cells) was > 86 and >86.21.
